# Mutational interference map of HIV-1 RNA dimerization

Data from the supplement of Ye et al. 2022, doi:10.1038/s41594-022-00746-2.

RNA: 5' end of the HIV-1 NL4-3 genome, made in vitro. Positions 1-437 read:
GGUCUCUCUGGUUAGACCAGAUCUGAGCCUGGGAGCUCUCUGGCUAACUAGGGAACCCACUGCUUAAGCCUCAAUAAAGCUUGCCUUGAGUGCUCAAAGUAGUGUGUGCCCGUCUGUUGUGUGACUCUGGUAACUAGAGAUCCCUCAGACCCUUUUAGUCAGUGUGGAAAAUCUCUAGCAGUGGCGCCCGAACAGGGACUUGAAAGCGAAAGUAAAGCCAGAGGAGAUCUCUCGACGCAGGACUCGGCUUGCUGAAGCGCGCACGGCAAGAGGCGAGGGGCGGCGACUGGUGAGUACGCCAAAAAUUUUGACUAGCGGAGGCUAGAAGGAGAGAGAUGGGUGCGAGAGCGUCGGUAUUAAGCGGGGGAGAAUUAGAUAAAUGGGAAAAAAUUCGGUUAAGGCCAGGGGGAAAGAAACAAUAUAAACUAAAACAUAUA

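Randomly mutated transcripts starting with one, two or three G (1G, 2G, 3G), capped or uncapped, were folded for 30 min at 37 °C. Monomer and dimer bands were cut from native gels after folding in high salt (300 mM KCl, 5 mM MgCl2) or low salt (40 mM KCl, 0.1 mM MgCl2). Kdimer compares mutation frequencies in monomer and dimer, corrected for sequencing errors.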

Scale: median log2 Kdimer over the changes at a position; positive = changes inhibit dimerization, negative = changes enhance it. One numbering serves 1G, 2G and 3G. A position is written with its base where known.

- position 464 -> 2G uncapped low-salt 0.02; 3G uncapped low-salt 0.05; 3G capped low-salt 0.04
- position 465 -> 2G uncapped low-salt 0.03; 3G uncapped low-salt -0.17; 3G capped low-salt -0.07
- position 466 -> 2G uncapped low-salt 0.02; 3G uncapped low-salt -0.13; 3G capped low-salt 0.07
- position 467 -> 2G uncapped low-salt 0.02; 3G uncapped low-salt -0.22; 3G capped low-salt -0.05
- position 468 -> 2G uncapped low-salt -0.01; 3G uncapped low-salt -0.27; 3G capped low-salt -0.03
- position 469 -> 2G uncapped low-salt -0.02; 3G uncapped low-salt -0.09; 3G capped low-salt 0.03
- position 470 -> 2G uncapped low-salt -0.03; 3G uncapped low-salt 0.13; 3G capped low-salt 0.17
- position 471 -> 2G uncapped low-salt 0.06; 3G uncapped low-salt 0.01; 3G capped low-salt 0.04
- position 472 -> 2G uncapped low-salt -0.02; 3G uncapped low-salt 0.01; 3G capped low-salt 0.10
- position 473 -> 2G uncapped low-salt -0.05; 3G uncapped low-salt 0.00; 3G capped low-salt 0.04
- position 474 -> 2G uncapped low-salt 0.04; 3G uncapped low-salt -0.06; 3G capped low-salt 0.01
- position 475 -> 2G uncapped low-salt 0.03; 3G uncapped low-salt 0.07; 3G capped low-salt -0.04
- position 476 -> 2G uncapped low-salt -0.16; 3G uncapped low-salt 0.12; 3G capped low-salt 0.01
- position 477 -> 2G uncapped low-salt -0.04; 3G uncapped low-salt 0.10; 3G capped low-salt -0.13
- position 478 -> 2G uncapped low-salt -0.06; 3G uncapped low-salt 0.03; 3G capped low-salt -0.19
- position 479 -> 2G uncapped low-salt 0.00; 3G uncapped low-salt 0.06; 3G capped low-salt -0.15
- position 480 -> 2G uncapped low-salt -0.03; 3G uncapped low-salt 0.03; 3G capped low-salt 0.06
- position 481 -> 2G uncapped low-salt 0.00; 3G uncapped low-salt -0.26; 3G capped low-salt -0.09
- position 482 -> 2G uncapped low-salt -0.01; 3G uncapped low-salt 0.00; 3G capped low-salt -0.05
- position 483 -> 2G uncapped low-salt -0.05; 3G uncapped low-salt -0.08; 3G capped low-salt -0.09
- position 484 -> 2G uncapped low-salt 0.09; 3G uncapped low-salt 0.08; 3G capped low-salt 0.02
- position 485 -> 2G uncapped low-salt -0.01; 3G uncapped low-salt 0.20; 3G capped low-salt 0.09
- position 486 -> 2G uncapped low-salt 0.05; 3G uncapped low-salt 0.00; 3G capped low-salt 0.14
- position 487 -> 2G uncapped low-salt 0.00; 3G uncapped low-salt 0.05; 3G capped low-salt 0.15
- position 488 -> 2G uncapped low-salt -0.01; 3G uncapped low-salt 0.01; 3G capped low-salt 0.03
- position 489 -> 2G uncapped low-salt 0.03; 3G uncapped low-salt -0.02; 3G capped low-salt 0.09
- position 490 -> 2G uncapped low-salt -0.02; 3G uncapped low-salt -0.18; 3G capped low-salt 0.04
- position 491 -> 2G uncapped low-salt -0.10; 3G uncapped low-salt -0.10; 3G capped low-salt 0.12
- position 492 -> 2G uncapped low-salt 0.09; 3G uncapped low-salt -0.01; 3G capped low-salt 0.10
- position 493 -> 2G uncapped low-salt 0.07; 3G uncapped low-salt 0.04; 3G capped low-salt 0.15
- position 494 -> 2G uncapped low-salt 0.04; 3G uncapped low-salt 0.13; 3G capped low-salt -0.02
- position 495 -> 2G uncapped low-salt 0.22; 3G uncapped low-salt 0.18; 3G capped low-salt 0.26
- position 496 -> 2G uncapped low-salt 0.04; 3G uncapped low-salt -0.03; 3G capped low-salt -0.01
- position 497 -> 2G uncapped low-salt -0.05; 3G uncapped low-salt -0.04; 3G capped low-salt -0.04
- position 498 -> 2G uncapped low-salt -0.04; 3G uncapped low-salt -0.09; 3G capped low-salt 0.09
- position 499 -> 2G uncapped low-salt 0.09; 3G uncapped low-salt -0.12; 3G capped low-salt 0.07
- position 500 -> 2G uncapped low-salt -0.04; 3G uncapped low-salt -0.14; 3G capped low-salt -0.05

The last 3 entries again:

position	domain	2G uncapped low-salt	3G uncapped low-salt	3G capped low-salt
498	none	-0.04	-0.09	0.09
499	none	0.09	-0.12	0.07
500	none	-0.04	-0.14	-0.05

Bases beyond 437 are not listed in the source.